# Tested on: SARS-CoV-2
# Assay: Viral RNA reduction assay (ddPCR) in Vero E6 cells, MOI 0.01
# Settings: calculated from RNA reduction EC50 values
substance,measurement,value
"teicoplanin [Compound 3, reference compound]",Therapeutic Index CC50/EC50,>17.9

# — paper PMC8619593 (Pharmaceuticals, 2021)
